Measured values from several laboratories, pooled; numbers as filed in NIAID ChemDB.

Common to all: cytotoxicity tests; cell line: MDBK; measure: CC50

Rows are shuffled and stem from different studies. An empty or dashed field is not shown. CCn is the concentration with n% toxicity to the cells.

{"SMILES": "CCCCCCCCCCCCCCCCCCCCCCC(=O)Nc1ccccc1C(=O)OCC", "value": ">100 µg/mL"}
{"SMILES": "CCCC(C)NC(=O)[C@@H]1[C@H](O)[C@@H](O)CN1C(=O)c1cccc(N(C)C)c1", "method": "visual reading", "value": ">300 µM"}
{"SMILES": "O=[N+]([O-])c1ccc2c(c1)c(N=NC(=S)NC1CCCCC1)c(O)n2CN1CCCCC1", "value": "21 µg/mL"}
{"SMILES": "CCOC(=O)c1c(CSc2ccccc2)n(C)c2cc(C#N)c(O)c(CN(N3CCC(CO)CC3)N3CCC(CO)CC3)c12", "method": "ATP", "value": "100 µM"}
{"SMILES": "FC(F)(F)c1cccc(-c2nc3ccn(Cc4ccc(Br)cc4)cc-3n2)c1", "value": ">100 µg/mL"}
{"SMILES": "CCOC(=O)c1c(COc2ccccc2)n(C)c2cc(Br)c(O)c(CN(N3CCC(CO)CC3)N3CCC(CO)CC3)c12", "method": "ATP", "value": "20 µM"}
{"SMILES": "CC(=O)O[C@H]1C[C@H](n2cc(/C(I)=C\\I)c(=O)[nH]c2=O)O[C@@H]1CO", "method": "neutral red", "value": ">100 µM"}
{"SMILES": "Clc1cccc(Cn2ccc3nc(-c4ccccc4)nc-3c2)c1", "value": "22 µg/mL"}
{"SMILES": "CCOC(=O)c1c(CSc2ccccc2)n(C)c2cc(Br)c(O)c(CN(C)C)c12.Cl", "method": "ATP", "value": "16.1 µM"}
{"SMILES": "CC(=O)O[C@H]1CC[C@@]23Oc4c(c(O)c(Br)c5c4CNC5=O)C[C@]2(C)[C@@H](C)CC[C@H]3C1(C)C", "value": "19 µM"}
{"SMILES": "CCCCCCCCc1ccc(CONCC(=O)C(=O)[C@H]2NC(=O)[C@H]3NC(=O)[C@H](NC(=O)[C@@H]4NC(=O)[C@H](CC(N)=O)NC(=O)[C@H](NC(=O)[C@@H](CC(C)C)NC)C(O)c5ccc(c(Cl)c5)Oc5cc4cc(c5O[C@@H]4O[C@H](CO)[C@@H](O)[C@H](O)[C@H]4O[C@H]4C[C@](C)(N[NH2+][O-])[C@@H](O)[C@H](C)O4)Oc4ccc(cc4)[C@H]3O[C@H]3C[C@](C)(N)[C@@H](O)[C@H](C)O3)c3ccc(O)c(c3)-c3c(O)cc(O)cc32)cc1", "value": "≥100 µM"}
{"SMILES": "Nc1ccn([C@@H]2O[C@H](CO)[C@@H](O)[C@H]2F)c(=O)n1", "value": ">100 µM"}
{"SMILES": "Cc1ccc(NC(=S)N=Nc2c(O)[nH]c3ccc([N+](=O)[O-])cc23)cc1", "value": "17 µg/mL"}
{"SMILES": "CC(=O)O[C@@H]1[C@H](OC(C)=O)[C@@H](CO)O[C@H]1n1cc(C#CBr)c(=O)[nH]c1=O", "method": "neutral red", "value": ">100 µM"}
{"SMILES": "CC(=O)O[C@H]1CC[C@@]23Oc4c(c(O)c(Cl)c5c4CNC5=O)C[C@]2(C)[C@@H](C)CC[C@H]3C1(C)C", "value": "20 µM"}
{"SMILES": "Ic1ccc(Cn2ccc3nc(-c4ccccc4)nc-3c2)cc1", "value": "9.4 µg/mL"}
{"SMILES": "COc1cc(O)c2c(=O)c3cc(N)c(Cl)cc3n(C)c2c1", "value": "5 µg/mL"}
{"SMILES": "O=c1ccn([C@@H]2O[C@H](CO)[C@@H](O)[C@H]2F)c(=O)[nH]1", "value": ">100 µM"}
{"SMILES": "C[C@H]1CC[C@H]2C(C)(C)[C@H](O)CC[C@]23Oc2c(c(O)cc4c2CNC4=O)C[C@]13C", "value": ">65 µM"}
{"SMILES": "Cc1ccc(C(C)C)c(O)c1", "method": "MTT", "value": "1400 µg/mL"}
{"SMILES": "CCCCN1C(=O)C(C)S/C1=N/N=C1\\C(=O)Nc2ccc([N+](=O)[O-])cc21", "value": ">50 µg/mL"}
{"SMILES": "NC(=O)c1nccn([C@@H]2O[C@H](CO)[C@@H](O)[C@H]2O)c1=O", "value": "2000 µM"}
{"SMILES": "CC(=O)O[C@H]1C[C@H](n2cc(/C(Cl)=C\\I)c(=O)[nH]c2=O)O[C@@H]1CO", "method": "neutral red", "value": ">100 µM"}
{"SMILES": "CC(=O)N[C@H](C(=O)N[C@@H](CCC(=O)O)C(=O)N[C@@H](CC(C)C)C(=O)N[C@@H](CCCCN)C(=O)N[C@@H](CCC(=O)O)C(=O)NC(CC(C)C)B1OC(C)(C)C(C)(C)O1)C(C)O.O=C(O)C(F)(F)F", "method": "crystal violet", "value": ">90 µM"}
{"SMILES": "CCOC(=O)c1c(CSc2ccccc2)n(C)c2cc(C#N)c(O)c(CN(N3CCN(CCOCCO)CC3)N3CCN(CCOCCO)CC3)c12", "method": "ATP", "value": "68 µM"}
{"SMILES": "C=CCN1C(=O)C(C)S/C1=N/N=C1\\C(=O)Nc2ccc([N+](=O)[O-])cc21", "value": ">50 µg/mL"}
{"SMILES": "CCOC(=O)c1c(CSc2ccccc2)n(C)c2cc(-c3ccncc3)c3c(c12)CN(C)CO3", "method": "ATP", "value": "22.2 µM"}
{"SMILES": "Clc1ccc(Cn2ccc3nc(-c4ccccc4)nc-3c2)s1", "value": "46 µg/mL"}
{"SMILES": "COc1ccc2c(c1)[C@@H]1C[C@]1(C(=O)N1[C@@H]3CC[C@H]1CN(C)C3)Cn1c-2c(C2CCCCC2)c2ccc(C(=O)NS(=O)(=O)N(C)C)cc21", "method": "resazurin", "value": "30 µM"}
{"SMILES": "O=C1Nc2ccc([N+](=O)[O-])cc2/C1=N/N=C1/SCC(=O)N1c1ccc(Br)cc1", "value": "5 µg/mL"}
{"SMILES": "CC(=O)O[C@H]1CC[C@@]23Oc4c(c(OCc5ccccc5)cc5c4CNC5=O)C[C@]2(C)[C@@H](C)CC[C@H]3C1(C)C", "value": "12 µM"}
{"SMILES": "O=c1nc(NO)ccn1[C@@H]1O[C@H](CO)[C@@H](O)[C@H]1O", "value": "100 µM"}
{"SMILES": "COc1cc(O)c2c(=O)c3cc([N+](=O)[O-])c(Cl)cc3n(C)c2c1", "value": ">33 µg/mL"}

The first 3 rows once more:

SMILES,method,value
CCCCCCCCCCCCCCCCCCCCCCC(=O)Nc1ccccc1C(=O)OCC,-,>100 µg/mL
CCCC(C)NC(=O)[C@@H]1[C@H](O)[C@@H](O)CN1C(=O)c1cccc(N(C)C)c1,visual reading,>300 µM
O=[N+]([O-])c1ccc2c(c1)c(N=NC(=S)NC1CCCCC1)c(O)n2CN1CCCCC1,-,21 µg/mL